Pooled drug test results. Numbers come from NIAID ChemDB, via PubChem.

Shared fields: growth or infection tests

Rows are shuffled and stem from different studies. A number after MIC or MFC names an inhibition level or a share of isolates. Blank or dashed fields: not listed here.

{"smiles": "CC[C@H]1OC(=O)[C@H](C)[C@@H](O[C@H]2C[C@@](C)(OC)[C@@H](O)[C@H](C)O2)[C@H](C)[C@@H](O[C@@H]2O[C@H](C)C[C@H](N(C)C)[C@H]2O)[C@](C)(OC)C[C@@H](C)C(=O)[C@H](C)[C@@H](O)[C@]1(C)O", "method": "broth dilution", "species": "Mycobacterium abscessus", "strain": "X51", "read-out": "MIC", "value": "0.25 µg/mL"}
{"smiles": "O=C(Nc1ccc(Cl)cc1)c1cc(Cl)ccc1OP(=O)(Oc1ccccc1)Oc1ccccc1", "species": "Mycobacterium kansasii", "setting": "7 d", "strain": "My 6509/96", "read-out": "MIC", "value": "8 µM"}
{"smiles": "CC[C@@H](CO)NCCN[C@@H](CC)CO", "species": "Mycobacterium avium complex", "strain": "3090-4", "read-out": "MIC", "value": "1.9 µg/mL"}
{"smiles": "CC1CN(c2c(F)cc3c(=O)c(C(=O)O)cn(C4CC4)c3c2F)CCN1", "species": "Mycobacterium smegmatis", "strain": "KD1991 (GYRA D95Y)", "read-out": "MIC99", "value": "1.1 µg/mL"}
{"smiles": "Nc1ccc(S(=O)(=O)c2ccc(N)cc2)cc1", "species": "Mycobacterium ulcerans", "strain": "ATCC 35840", "read-out": "MIC", "value": "1 µg/mL"}
{"smiles": "O=C1c2cc(Br)ccc2OP(=O)(c2ccccc2)N1c1ccc(C(F)(F)F)cc1", "species": "Mycobacterium kansasii", "setting": "14 d", "strain": "My 6509/96", "read-out": "MIC", "value": "8 µM"}
{"smiles": "CO[C@H]1/C=C/O[C@@]2(C)Oc3c(C)c(O)c4c(O)c(c5c(c4c3C2=O)NC2(CCN(CC(C)C)CC2)N=5)=NC(=O)/C(C)=C\\C=C\\[C@H](C)[C@H](O)[C@@H](C)[C@@H](O)[C@@H](C)[C@H](OC(C)=O)[C@@H]1C", "species": "Mycobacterium avium intracellulare", "strain": "20 isolates", "read-out": "MIC50", "value": "0.25 µg/mL"}
{"smiles": "C[C@@H]1CN(c2c(F)c(N)c3c(=O)c(C(=O)O)cn(C4CC4)c3c2F)C[C@H](C)N1", "method": "broth dilution", "species": "Mycobacterium avium complex", "strain": "23", "read-out": "MIC", "value": "0.5 µg/mL"}
{"smiles": "CC[C@@H](C(=O)[C@@H](C)[C@@H](O)[C@H](C)[C@@H]1O[C@@H]([C@@H](CC)C(=O)O)CC[C@@H]1C)[C@H]1O[C@@]2(C=C[C@@H](O)[C@@]3(CC[C@@](C)([C@H]4CC[C@](O)(CC)[C@H](C)O4)O3)O2)[C@H](C)C[C@@H]1C", "method": "resazurin", "species": "Mycobacterium marinum", "strain": "ATCC BAA-535", "read-out": "MIC", "value": "10 µg/mL"}
{"smiles": "COc1cc(Cc2cnc(N)nc2N)cc(OC)c1OCCCNc1ccc(S(=O)(=O)c2ccc(N)cc2)cc1", "species": "Mycobacterium ulcerans", "strain": "Isolate 5155", "read-out": "MBC", "value": "8 µg/mL"}
{"smiles": "Fc1cccc(Cn2cc(/C=N/Nc3nncs3)c3ccccc32)c1", "method": "broth dilution", "species": "Mycobacterium bovis BCG", "setting": "24 h", "strain": "1173P2", "read-out": "MIC100", "value": "250 µg/mL"}
{"smiles": "CC(C)N1CCN(c2cc3c(cc2F)c(=O)c(C(=O)O)cn3C2CC2)CC1", "species": "Mycobacterium smegmatis", "strain": "KD1998 (GYRA D95N)", "read-out": "MIC99", "value": "4.3 µg/mL"}
{"smiles": "CN(C)c1cc(NC(=O)CNC(C)(C)C)c(O)c2c1C[C@H]1C[C@H]3[C@H](N(C)C)C(=O)C(C(N)=O)=C(O)[C@@]3(O)C(=O)C1=C2O", "method": "broth dilution", "species": "Mycobacterium massiliense", "strain": "X14", "read-out": "MIC", "value": "1 µg/mL"}
{"smiles": "CCN1CCN(c2c(F)cc3c(=O)c(C(=O)O)cn(C4CC4)c3c2OC)CC1", "species": "Mycobacterium smegmatis", "strain": "KD1995 (GYRA D95H)", "read-out": "MIC99", "value": "0.76 µg/mL"}
{"smiles": "O=C1c2cc(Cl)ccc2OP(=O)(c2ccccc2)N1c1ccc(Cl)cc1", "species": "Mycobacterium kansasii", "setting": "14 d", "strain": "My 6509/96", "read-out": "MIC", "value": "16 µM"}
{"smiles": "CO[C@H]1/C=C/O[C@@]2(C)Oc3c(C)c(O)c4c(O)c(c(N5CCN(Cc6c(C)cc(C)cc6C)CC5)c(O)c4c3C2=O)NC(=O)/C(C)=C\\C=C\\[C@H](C)[C@H](O)[C@@H](C)[C@@H](O)[C@@H](C)[C@H](OC(C)=O)[C@@H]1C", "species": "Mycobacterium avium", "strain": "50 strains", "read-out": "MIC90", "value": "0.11 µg/mL"}
{"smiles": "CO[C@@H]1C[C@@H](C[C@H]2CC[C@H](C)[C@H]([C@@H](C)C(=O)O)O2)O[C@]2(O[C@](C)([C@H]3CC[C@@](C)([C@@H]4O[C@@H]([C@H]5O[C@@](O)(CO)[C@H](C)C[C@@H]5C)C[C@@H]4C)O3)C[C@H]2C)[C@@H]1C", "method": "resazurin", "species": "Mycobacterium marinum", "strain": "ATCC BAA-353", "read-out": "MIC", "changes": "G262", "value": "5 µg/mL"}
{"smiles": "CC1CN(c2cc3c(cc2F)c(=O)c(C(=O)O)cn3C2CC2)CCN1", "species": "Mycobacterium smegmatis", "strain": "KD2012 (GYRA G89A)", "read-out": "MIC99", "value": "0.92 µg/mL"}
{"smiles": "NNC(=S)N/N=C/c1cn(Cc2ccccc2Cl)c2ccccc12", "method": "broth dilution", "species": "Mycobacterium bovis BCG", "setting": "48 h", "strain": "1173P2", "read-out": "MIC100", "value": ">500 µg/mL"}
{"smiles": "O=C(Nc1ccccc1)c1ccccc1OP(=O)(OCc1ccccc1)OCc1ccccc1", "species": "Mycobacterium kansasii", "setting": "7 d", "strain": "My 6509/96", "read-out": "MIC", "value": "125 µM"}
{"smiles": "COc1ccc(Cn2cc(/C=N/Nc3nncs3)c3ccccc32)cc1", "method": "broth dilution", "species": "Mycobacterium bovis BCG", "setting": "24 h", "strain": "1173P2", "read-out": "MIC100", "value": "3.91 µg/mL"}
{"smiles": "O=C(O)c1cn(C2CC2)c2c(F)c(N3CCNCC3)c(F)cc2c1=O", "species": "Mycobacterium smegmatis", "strain": "KD1987 (GYRA A91V)", "read-out": "MIC99", "value": "0.54 µg/mL"}
{"smiles": "O=C(Nc1ccc(C(F)(F)F)cc1)c1cc(Cl)ccc1OP(=O)(Oc1ccccc1)Oc1ccccc1", "species": "Mycobacterium kansasii", "setting": "14 d", "strain": "My 235/80", "read-out": "MIC", "value": "4 µM"}
{"smiles": "COc1c(N2CCNCC2)c(F)cc2c(=O)c(C(=O)O)cn(C3CC3)c12", "species": "Mycobacterium smegmatis", "strain": "KD2008 (GYRA G89C)", "read-out": "MIC99", "value": "0.94 µg/mL"}
{"smiles": "O=C(Nc1ccc(Cl)c(Cl)c1)c1cc(Cl)ccc1OP(=O)(c1ccccc1)c1ccccc1", "species": "Mycobacterium kansasii", "setting": "14 d", "strain": "My 6509/96", "read-out": "MIC", "value": "8 µM"}
{"smiles": "CN[C@@H]1[C@H](O[C@H]2[C@H](O[C@H]3[C@H](O)[C@@H](O)[C@H](N=C(N)N)[C@@H](O)[C@@H]3N=C(N)N)O[C@@H](C)[C@]2(O)C=O)O[C@@H](CO)[C@H](O)[C@H]1O", "species": "Mycobacterium avium complex", "strain": "Isolate C-18", "read-out": "MIC", "value": "50 µg/mL"}
{"smiles": "COc1c(N2CCN(C(C)C)CC2)c(F)cc2c(=O)c(C(=O)O)cn(C3CC3)c12", "species": "Mycobacterium smegmatis", "strain": "KD1987 (GYRA A91V)", "read-out": "MIC99", "value": "1.4 µg/mL"}
{"smiles": "O=C(Nc1ccc(C(F)(F)F)cc1)c1cc(Br)ccc1OP(=O)(OCc1ccccc1)OCc1ccccc1", "species": "Mycobacterium kansasii", "setting": "14 d", "strain": "My 6509/96", "read-out": "MIC", "value": "16 µM"}
{"smiles": "CCN1CCN(c2c(F)cc3c(=O)c(C(=O)O)cn(C4CC4)c3c2F)CC1", "species": "Mycobacterium smegmatis", "strain": "KD1163 (GRYA+)", "read-out": "MIC99", "value": "0.1 µg/mL"}
{"smiles": "N#Cc1cccc(Cn2cc(/C=N/Nc3nncs3)c3ccccc32)c1", "method": "broth dilution", "species": "Mycobacterium bovis BCG", "setting": "48 h", "strain": "1173P2", "read-out": "MIC100", "value": "250 µg/mL"}
{"smiles": "CC1CN(c2c(F)cc3c(=O)c(C(=O)O)cn(C4CC4)c3c2F)CC(C)N1", "species": "Mycobacterium smegmatis", "strain": "KD1990 (GYRA D95A)", "read-out": "MIC99", "value": "0.43 µg/mL"}
{"smiles": "Cc1ccc(Cn2cc(/C=N/NC(=S)NN)c3ccccc32)cc1", "method": "broth dilution", "species": "Mycobacterium bovis BCG", "setting": "48 h", "strain": "1173P2", "read-out": "MIC100", "value": ">500 µg/mL"}

The first 4 rows once more:

| smiles | method | species | setting | strain | read-out | changes | value |
|---|---|---|---|---|---|---|---|
| CC[C@H]1OC(=O)[C@H](C)[C@@H](O[C@H]2C[C@@](C)(OC)[C@@H](O)[C@H](C)O2)[C@H](C)[C@@H](O[C@@H]2O[C@H](C)C[C@H](N(C)C)[C@H]2O)[C@](C)(OC)C[C@@H](C)C(=O)[C@H](C)[C@@H](O)[C@]1(C)O | broth dilution | Mycobacterium abscessus | - | X51 | MIC | - | 0.25 µg/mL |
| O=C(Nc1ccc(Cl)cc1)c1cc(Cl)ccc1OP(=O)(Oc1ccccc1)Oc1ccccc1 | - | Mycobacterium kansasii | 7 d | My 6509/96 | MIC | - | 8 µM |
| CC[C@@H](CO)NCCN[C@@H](CC)CO | - | Mycobacterium avium complex | - | 3090-4 | MIC | - | 1.9 µg/mL |
| CC1CN(c2c(F)cc3c(=O)c(C(=O)O)cn(C4CC4)c3c2F)CCN1 | - | Mycobacterium smegmatis | - | KD1991 (GYRA D95Y) | MIC99 | - | 1.1 µg/mL |